{"source": "patent US20240426776A1", "about": "“RAPID DIFFERENTIATION OF ANTIBIOTIC-SUSCEPTIBLE AND -RESISTANT BACTERIA THROUGH MEDIATED EXTRACELLULAR ELECTRON TRANSFER” (priority 2021, published 2024)", "test_system": "Staphylococcus aureus (strains 29213 and 43300)", "test": "READAS electrochemical current response with PMS mediator (ASIn)", "type": "cell-based", "conditions": "for t6σ (READAS response time): tobramycin"}
{"smiles": "NC[C@H]1O[C@H](O[C@H]2[C@H](O)[C@@H](O[C@H]3O[C@H](CO)[C@@H](O)[C@H](N)[C@H]3O)[C@H](N)C[C@@H]2N)[C@H](N)C[C@@H]1O", "note": "[Tobramycin, tobramycin]", "values": [{"measurement": "t6σ (READAS response time)", "setting": "strain 29213 (susceptible)", "result": "12 to 21", "unit": "min"}, {"measurement": "ASIn analysis time", "setting": "strain 29213 (susceptible), tobramycin 10× (160 μg/mL)", "result": "(47-70 min)"}, {"measurement": "t6σ (READAS response time)", "setting": "strain 43300 (resistant)", "result": "7 to 37", "unit": "min"}, {"measurement": "ASIn analysis time", "setting": "strain 43300 (resistant), tobramycin 10× (160 μg/mL)", "result": "(33-78 min)"}, {"measurement": "ASIn analysis time for classifying the strains as resistant or susceptible", "setting": "strains 29213 and 43300, tobramycin 10× (160 μg/mL), oxacillin 20× (120 μg/mL)", "result": "33 to 78", "unit": "min"}]}
